Assay results taken from US20200010516A1 (NATIONAL CHENG KUNG UNIVERSITY, published 2020).

B1: ^39SRAG^43K-^48ARGDN^53P-^67Y^68H (ligand)
chain: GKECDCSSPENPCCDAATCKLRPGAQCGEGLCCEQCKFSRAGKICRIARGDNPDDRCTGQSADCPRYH
B2: 39MKKGT-^48ARGDN^53P-^67NGLY^71G (ligand)
chain: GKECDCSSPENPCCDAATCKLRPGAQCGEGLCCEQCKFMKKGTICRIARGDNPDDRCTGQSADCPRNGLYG

Tests used:
Assay in all cases: cell-based or functional assay
[1] = biological target: integrin α5β1 on K562 cells (human, UniProt P08648 42-1049; P05556 21-798)
[2] = biological target: integrin αIIbβ3 on platelets of healthy donors (UniProt P08514 32-1039; P05106 27-788)
[3] = biological target: integrin αvβ3 on CHO-αvβ3 cells (UniProt P06756 31-1048; P05106 27-788)

| Binder | IC50, adhesion of K562 cells to fibronectin [1] | IC50, Platelet Aggregation [2] | IC50, adhesion of CHO-αvβ3 cells to fibrinogen [3] |
| --- | --- | --- | --- |
| B1 | 40 nM | 125 nM |  |
| B2 |  | 178 nM | 4 nM |
